The chains behind the UniProt entries cited, without tags or fusion partners. Residues count along the entry.
UniProt O05442, 648-846 limits assumed: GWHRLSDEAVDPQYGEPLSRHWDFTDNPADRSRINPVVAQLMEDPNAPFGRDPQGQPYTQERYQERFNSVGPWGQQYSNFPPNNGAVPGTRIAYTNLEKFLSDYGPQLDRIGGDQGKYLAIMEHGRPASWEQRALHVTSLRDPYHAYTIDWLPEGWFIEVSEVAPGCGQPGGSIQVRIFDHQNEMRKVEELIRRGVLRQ

In publication PMC7806871 (2021):

Target: TNT (tuberculosis necrotizing toxin), rTNT (Mycobacterium tuberculosis, UniProt O05442)
Assay: NAD+ hydrolysis, NADH fluorescence assay
Conditions: 75 nM TNT, 200 µM NAD+

## NC(=O)c1ccc[n+]([C@@H]2O[C@H](COP(=O)(O)OP(=O)(O)OC[C@H]3O[C@@H](n4cnc5c(N)ncnc54)[C@H](O)[C@@H]3O)[C@@H](O)[C@H]2O)c1
  NAD+ hydrolysis, NADH fluorescence assay: rTNT purified from IFT-TNT complex, but not from inclusion bodies, could hydrolyse NAD^+
